Compound potency records, mixed from different reports. Data source: NIAID ChemDB in PubChem.

All rows: tests in culture; species: HIV-1; cells: PBMC; endpoint: EC50

a–b is a range or a potency band. An empty or dashed field is not shown. ECn is the concentration giving n% inhibition of infection, replication or growth. Lines come from different laboratories, so protocols vary.

compound | strain or isolate | mutations | method | conditions | result
O=C(O)c1cc(O)cc(O)c1N=Nc1ccc(/C=C/c2ccc(N=Nc3c(O)cc(O)cc3C(=O)O)cc2S(=O)(=O)O)c(S(=O)(=O)O)c1 | CLADE C | - | p24 | - | 0.5 µg/mL
Cc1cn([C@H]2C[C@H](F)[C@@H](CO)O2)c(=O)[nH]c1=O | RS NRTI-MDR (RT M41L M43E E44A D67N V118I M184V L210W T215Y K219N) | RT-M41L M43E E44D/A D67N V118I M184V L210W T215Y K219N | antigen | - | 0.0083 µM
CCOP(=O)(CO[C@H]1C[C@@H](n2cnc3c(Cl)nc(N)nc32)C(F)(F)C1)OCC | LAI | - | RT activity | - | 68 µM
Cc1cnn(Cc2cc3c(cc2F)C(C#CC2CC2)(C(C)(F)F)NC(=O)N3)c(=O)c1 | - | - | GFP | pseudotyped | 0.069 µM
Nc1ncnc2c([C@H]3CC[C@](CCP(=O)(O)O)(C(F)(F)F)C3)c[nH]c12 | LAI | - | - | - | 29.7 µM
C=C(C)[C@@H]1CC[C@]2(C(=O)NCCCCCCCC(=O)N[C@@H](CC(C)C)[C@H](O)CC(=O)O)CC[C@]3(C)[C@H](CC[C@@H]4[C@@]5(C)CC[C@H](O)C(C)(C)[C@@H]5CC[C@]43C)[C@@H]12 | 89.6 | - | RT activity | - | <1.84 µM
CC(C)(C)NC(=O)[C@@H]1CN(Cc2cccnc2)CCN1C[C@@H](O)C[C@@H](Cc1ccccc1)C(=O)N[C@H]1c2ccccc2C[C@H]1O | 7295-1 NRTI resistant recombinant | RT-D67N T69N K70R M184V T215F K219Q | RT activity | - | 0.0014 µM
Cc1csc(NC(=S)N[C@H](C)c2cccc3ccccc23)n1 | IIIB | - | p24 | - | 0.001 µM
CC(C)(C)NC(=O)[C@@H]1C[C@@H]2CCCC[C@@H]2CN1C[C@@H](O)[C@H](Cc1ccccc1)NC(=O)[C@H](CC(N)=O)NC(=O)c1ccc2ccccc2n1 | JSL | MDR | p24 | - | 0.08 µM
COC(=O)[C@H](Cc1c[nH]c2ccccc12)NP(=O)(OC[C@H]1O[C@@H](N2C(=O)NC(=O)C(C)(Br)C2OC)C[C@@H]1N=[N+]=[N-])Oc1ccc(Br)cc1 | IIIB | - | p24 | - | 0.34 µM
Nc1ncnc2c1ncn2[C@@H]1OC[C@@](/C=C/P(=O)(O)O)(CO)[C@@H]1F | LAI | - | MTT | - | 56.6 µM
Nc1nc2c(ncn2[C@@H]2C=C[C@H](CO)O2)c(=O)[nH]1 | - | - | - | - | 14.1 µM
O=c1[nH]cnc2c1ncn2[C@H]1CC[C@@](F)(/C=C/P(=O)(O)O)C1 | LAI | - | RT activity | - | 30 µM
Cc1cn([C@H]2C[C@H](N=[N+]=[N-])[C@@H](CO)O2)c(=O)[nH]c1=O | HXB2 | - | p24 | - | 0.002 µM
Cc1cn([C@H]2C[C@H](N=[N+]=[N-])[C@@H](CO)O2)c(=O)[nH]c1=O | RT multidrug-resistant (L74V V106A T215Y) | RT-L74V V106A T215Y | p24 | - | 0.055 µM
Cc1cn([C@H]2C=C[C@@H](CO)O2)c(=O)[nH]c1=O | HxB2D(RT-D67G) | RT-D67G | p24 | - | 0.35 µM
Nc1ncnc2c1ncn2[C@H]1C=C[C@@H](CO)O1 | LAV | - | RT activity | - | 0.76 µM
Cc1cn([C@H]2C[C@H](N=[N+]=[N-])[C@@H](CO)O2)c(=O)[nH]c1=O | LAI | - | RT activity | - | 0.112 µM
O=C(C1CCCC1)N1C[C@H](N2CCC(N3CC=CN(Cc4ccc(C(F)(F)F)cc4)C3=O)CC2)[C@@](O)(c2ccccc2)C1 | - | - | p24 / ELISA | - | >0.1 µM
O=c1[nH]cnc2c1ncn2[C@@H]1C=C[C@H](CO)O1 | - | - | - | - | 5.5 µM
CCO/N=C(\c1ccc(Br)cc1)C1CCN(C2(C)CCN(C(=O)c3c(C)cc[n+]([O-])c3C)CC2)CC1 | R5-08 R5 clinical isolate | - | p24 | - | 0.0087 µM
Nc1nc2c(ncn2[C@@H]2OC[C@](CO)(CCP(=O)(O)O)[C@@H]2F)c(=O)[nH]1 | LAI | - | MTT | - | 88 µM
O=C1c2ccccc2C2(c3ccccc3)SCCN12 | D148/86 | - | p24 / ELISA | - | 0.643 µM
COC1N(C2CC(N=[N+]=[N-])C(CO)O2)C(=O)NC(=O)C1(C)Br | - | - | p24 | - | 0.006 µM
Cc1cn([C@H]2C[C@H](N=[N+]=[N-])[C@@H](CO)O2)c(=O)[nH]c1=O | LAI | - | RT activity | - | 0.003 µM
COC(=O)[C@H](C)NP(=O)(OC[C@H]1O[C@@H](N2C(=O)NC(=O)C(C)(Br)C2OC)C[C@@H]1N=[N+]=[N-])Oc1ccc(Br)cc1 | - | - | p24 | - | 0.005 µM
CC[C@H](C)[C@H](NC(=O)c1ccccc1SSc1ccccc1C(=O)N[C@H](C(=O)O)[C@@H](C)CC)C(=O)O | ROJO | - | p24 / RT activity | - | 13.5 µM
Cc1cn([C@H]2C[C@H](N=[N+]=[N-])[C@@H](CO)O2)c(=O)[nH]c1=O | MM | MDR | p24 | - | 0.04 µM
Nc1ncnc2c1ncn2[C@H]1CC[C@@](F)(/C=C/P(=O)(O)O)C1 | LAI | - | RT activity | - | 51 µM
CCOP(=O)(CO[C@H]1C[C@@H](n2cnc3c(N)nc(F)nc32)C(F)(F)C1)OCC | LAI | - | RT activity | - | 81 µM
C=CCN(C(=O)OCc1ccc(S(=C)(C)=O)cc1)C1CCN([C@H]2CN(C(=O)C3CCCC3)C[C@]2(O)c2ccccc2)CC1 | - | - | - | - | <0.005 µM
Cc1cn([C@H]2C=C[C@@H](CO)O2)c(=O)[nH]c1=O | LAV | - | RT activity | - | 0.009 µM
CC(C)CN(C[C@@H](O)[C@H](Cc1ccccc1)NC(=O)O[C@H]1CCOC1)S(=O)(=O)c1ccc(N)cc1 | ERS104pre | - | - | - | 0.028 µM
Nc1nc(=O)n([C@H]2CO[C@@H](CO)S2)cc1F | HXB2D | - | p24 | - | 1.5 µM
COc1ccc(-c2oc3c4c(cc(O)c3c(=O)c2O)OC(C)(C)CC4)cc1 | BK132 | - | PCR | - | 21.1 µM
C=CCN(C(=O)OCc1ccc(S(=O)OC)cc1)C1CCN([C@H]2CN(C(=O)C3CCCC3)C[C@]2(O)c2ccccc2)CC1 | - | - | p24 / ELISA | - | >0.1 µM
Nc1ccn([C@H]2CC[C@@H](CO)O2)c(=O)n1 | LAV | - | RT activity | - | 0.011 µM
Nc1ncnc2c1ncn2[C@@H]1C=C[C@H](CO)O1 | - | - | - | - | 0.38 µM
O=c1[nH]cnc2c1ncn2[C@H]1O[C@@H](CO)C=C1F | LAV | - | RT activity | - | >100 µM
C=CCN(C(=O)Cc1ccc(C(F)(F)F)cc1)C1CCN(C[C@H]2CN(C(=O)C3CCCC3)C[C@]2(O)c2ccccc2)CC1 | - | - | p24 | - | 0.051–0.099 µM
CCc1nc2sccn2c1C(=O)c1ccco1 | IIIB | - | RT activity | - | 1.5 µM
Cc1cn([C@H]2C[C@H](N=[N+]=[N-])[C@@H](CO)O2)c(=O)[nH]c1=O | BCF01 | RT-A98G K103R Y181C | - | - | <0.01 µM
Cc1ccc(-c2ccc3c(c2)C=C(C(=O)Nc2ccc(C[N+](C)(C)C4CCOCC4)cc2)CCC3)cc1 | SF162 R5 | - | antigen | - | >1 µg/mL
Cc1cccc(NC(=S)N[C@H](C)c2cccc3ccccc23)n1 | IIIB | - | p24 | - | 0.004 µM
C=CCN(C(=O)NCc1ccc(C(F)(F)F)cc1)C1CCN(C[C@H]2CN(C(=O)c3ccco3)C[C@]2(O)c2ccccc2)CC1 | - | - | p24 | - | >0.1 µM
O=c1[nH]cnc2c1ncn2[C@@H]1O[C@@H](CO)C=C1F | LAV | - | RT activity | - | >100 µM
CCC(=O)c1ccc(F)c([C@@H]2C[C@@H]2NC(=O)Nc2ccc(C#N)cn2)c1O | 93TH051 | - | absorbance | - | 0.0014 µM
CCCCN1C(=O)C(CC2CCCCC2)NC(=O)C12CCN(Cc1ccc3c(c1)OCCO3)CC2 | NL4-3 | - | p24 | - | >1 µM
O=C(O)P(=O)(O)O | LAI | - | - | - | 0.43 µM
c1cc(CN2CCCNCCNCCCNCC2)ccc1CN1CCCNCCNCCCNCC1 | IIIB | - | p24 | - | 0.01 µg/mL
S=C(NCCc1cccs1)Nc1ccc(Br)cn1 | G890-1 Clinical isolate NRTI-resistant | RT-K20R M41L D67N T69N K70R L210W T215Y | p24 | - | 0.032 µM
c1cc(CN2CCCNCCNCCCNCC2)ccc1CN1CCCNCCNCCCNCC1 | MM | MDR | p24 | - | >1 µM
CC(C)=CCOc1c2occc2cc2ccc(=O)oc12 | NL4-3 Recombinant VSV-pseudotyped | - | luciferase | - | <25 µM
CCCCOCCOc1ccc(-c2ccc3c(c2)/C=C(/C(=O)Nc2ccc([S@@](=O)Cc4cncn4CCC)cc2)CCCN3CC(C)C)cc1 | R5-01 R5 clinical isolate | - | p24 | - | 0.00017 µM
Cc1cn([C@H]2C[C@H](N=[N+]=[N-])[C@@H](CO)O2)c(=O)[nH]c1=O | RF | - | p24 | - | <0.125 µM
C=CCN(C(=O)NCc1ccc(C(F)(F)F)cc1)C1CCN([C@H]2CN(C(=O)c3ccco3)C[C@]2(O)c2ccccc2)CC1 | - | - | p24 / ELISA | - | >0.1 µM
C[C@@H](NC(=S)Nc1ccc(Br)cn1)c1cccc2ccccc12 | RT multidrug-resistant (L74V V106A T215Y) | RT-L74V V106A T215Y | p24 | - | 0.001 µM
CCO/N=C(\c1ccc(Br)cc1)C1CCN(C2(C)CCN(C(=O)c3c(C)cc[n+]([O-])c3C)CC2)CC1 | BAL(G) R5 CLADE B | - | p24 | - | 0.02 µM
O=C(O)P(=O)(O)O | 8791 CLADE A CLADE A | - | p24 | - | 21.4 µM
COC(=O)[C@H](Cc1c[nH]c2ccccc12)NP(=O)(OC[C@H]1O[C@@H](N2C(=O)NC(=O)C(C)(Br)C2OC)C[C@@H]1N=[N+]=[N-])Oc1ccccc1 | IIIB | - | p24 | - | 0.14 µM
Cc1cn([C@H]2C[C@H](N=[N+]=[N-])[C@@H](CO)O2)c(=O)[nH]c1=O | - | - | p24 | - | 0.006 µM
Cc1ccc(NC(=S)N[C@H](C)c2cccc3ccccc23)nc1 | RT multidrug-resistant (L74V V106A T215Y) | RT-L74V V106A T215Y | p24 | - | 0.003 µM
Nc1ccn([C@H]2CO[C@@H](CO)S2)c(=O)n1 | HXB2D (RT-K65R) | RT-K65R | p24 | - | 3.5 µM
Cc1ccnc2c1NC(=O)c1cccnc1N2C1CC1 | HXB2 | - | p24 | - | 0.15 µM
Nc1ccn([C@H]2CC[C@@H](CO)C2)c(=O)n1 | LAV | - | RT activity | - | >100 µM
Cc1ccnc2c1NC(=O)c1cccnc1N2C1CC1 | D79 | - | p24 / ELISA | - | 0.051 µM
Cc1cc(C)c(Nc2ccnc(Nc3ccc(C#N)cc3)n2)c(C)c1 | 93TH051 | - | absorbance | - | 0.0037 µM
COC[C@@H](c1ccc(C(F)(F)F)cc1)N1CCN(C2(C)CCN(C(=O)c3c(C)ncnc3C)CC2)C[C@@H]1C | CC1/85 maraviroc-resistant isolate | - | p24 / ELISA | - | >20 µM
Cc1ccnc2c1NC(=O)c1cccnc1N2C1CC1 | BCF06 | RT-A98G K103R | - | - | 0.12 µM
Nc1nc(=O)n([C@@H]2CO[C@H](CO)S2)cc1F | HxB2D(RT-D67G) | RT-D67G | p24 | - | 6.5 µM
Cc1cn([C@H]2C[C@H](N=[N+]=[N-])[C@@H](CO)O2)c(=O)nc1N | LAV | - | RT activity | - | 0.081–0.22 µM
COC(=O)[C@H](C)NP(=O)(OC[C@@H]1C=C[C@H](n2cc(C)c(=O)[nH]c2=O)O1)Oc1ccc(Br)cc1 | R416-10 NRTI resistant | RT-M41L T215Y | p24 | - | 0.0002 µM
Nc1ccn([C@H]2C=C[C@@H](CO)C2)c(=O)n1 | LAV | - | RT activity | - | >100 µM
Cc1cn([C@H]2C=C[C@@H](CO)O2)c(=O)[nH]c1=O | MOKW | - | p24 | - | 0.015 µM
Cc1ccc(-c2ccc3c(c2)C=C(C(=O)Nc2ccc(C[N+](C)(C)C4CCOCC4)cc2)CCC3)cc1 | BaL | - | p24 | - | 0.0037 µM
CC(C)(C)NC(=O)[C@@H]1CN(Cc2cccnc2)CCN1C[C@@H](O)C[C@@H](Cc1ccccc1)C(=O)N[C@H]1c2ccccc2C[C@H]1O | PI-resistant | PR-M46I L63P V82T I84V | p24 | - | 0.1019 µM
COC(=O)[C@H](C)NP(=O)(OC[C@H]1O[C@@H](n2cc(C)c(=O)[nH]c2=O)C[C@@H]1N=[N+]=[N-])Oc1ccc(Br)cc1 | IIIB | - | p24 | - | ~0.001 µM

For reference, 10 entries again:

O=C(O)c1cc(O)cc(O)c1N=Nc1ccc(/C=C/c2ccc(N=Nc3c(O)cc(O)cc3C(=O)O)cc2S(=O)(=O)O)c(S(=O)(=O)O)c1 ; strain or isolate: CLADE C ; method: p24 ; result: 0.5 µg/mL
Nc1ncnc2c1ncn2[C@H]1CC[C@@](F)(/C=C/P(=O)(O)O)C1 ; strain or isolate: LAI ; method: RT activity ; result: 51 µM
CCOP(=O)(CO[C@H]1C[C@@H](n2cnc3c(Cl)nc(N)nc32)C(F)(F)C1)OCC ; strain or isolate: LAI ; method: RT activity ; result: 68 µM
COc1ccc(-c2oc3c4c(cc(O)c3c(=O)c2O)OC(C)(C)CC4)cc1 ; strain or isolate: BK132 ; method: PCR ; result: 21.1 µM
CCCCN1C(=O)C(CC2CCCCC2)NC(=O)C12CCN(Cc1ccc3c(c1)OCCO3)CC2 ; strain or isolate: NL4-3 ; method: p24 ; result: >1 µM
Nc1ncnc2c([C@H]3CC[C@](CCP(=O)(O)O)(C(F)(F)F)C3)c[nH]c12 ; strain or isolate: LAI ; result: 29.7 µM
COC(=O)[C@H](C)NP(=O)(OC[C@@H]1C=C[C@H](n2cc(C)c(=O)[nH]c2=O)O1)Oc1ccc(Br)cc1 ; strain or isolate: R416-10 NRTI resistant ; mutations: RT-M41L T215Y ; method: p24 ; result: 0.0002 µM
Nc1ncnc2c1ncn2[C@@H]1OC[C@@](/C=C/P(=O)(O)O)(CO)[C@@H]1F ; strain or isolate: LAI ; method: MTT ; result: 56.6 µM
Cc1cccc(NC(=S)N[C@H](C)c2cccc3ccccc23)n1 ; strain or isolate: IIIB ; method: p24 ; result: 0.004 µM
CC(C)=CCOc1c2occc2cc2ccc(=O)oc12 ; strain or isolate: NL4-3 Recombinant VSV-pseudotyped ; method: luciferase ; result: <25 µM